Test results from patent US10988505B2.

System: PR8 H1N1 influenza virus
Assay: Influenza virus replication PR8 in Calu-3 cells (viral plaque assay)
Assay type: cell-based
Details: Calu-3 human bronchial epithelial cells, 48 h

Row | SMILES | EC50 [nM]
1 | CC(=O)N[C@@H](CCC(N)=O)C(=O)N[C@@H](Cc1ccccc1)C(=O)N[C@@H](CCCNC(=N)N)C(=O)c1nc2ccccc2s1 [Example 3] | 2.28
2 | C[C@H](NC(=O)[C@H](CCC(N)=O)NC(=O)[C@@H](N)CCCNC(=N)N)C(=O)N[C@@H](CCCNC(=N)N)C(=O)c1nc2ccccc2s1 [Comparative #1, reference compound] | 5070
3 | N=C(N)NCCCCC(=O)N[C@@H](CCC(N)=O)C(=O)N[C@@H](Cc1ccccc1)C(=O)N[C@@H](CCCNC(=N)N)C(=O)c1nc2ccccc2s1 [Example 1] | 27.3
